The exact form of at least one protein or probe is not confirmed.

The test system of the series is MucR. The experiment in a line: EMSA. The note with it: 6.25 mM Mg2+; 25 mM HEPES pH 7.9, 50 mM KCl, 6.25 mM MgCl2, 5% glycerol; […]) or 0.4-1.6 ug ([…], room temperature; recombinant protein. A general note: Mobility shift assays separate free from complexed probe on a gel.
For the sequence “ACTACCCAATAATGACCGATATCGCTGATCTATAATTAAGGCTATCATAATAATCGTCCA (double strand) [vir60.2]”, the binding result was “binds”. With “CACACAATATATAGCCCCCT (double strand) [vp1]”, the binding result is “binds”. The result for “CATTCACACAATATATAGCCCCCTCACAAGCATATTTGTCCATATATCGGCTTAAACAAC (double strand) [vir60.1]” reads “binds”.
